Reference: article PMC3856094, “Identification of Novel Small Molecules as Inhibitors of Hepatitis C Virus by Structure-Based Virtual Screening” (International Journal of Molecular Sciences, 2013)

Test system: HCV replicon, Huh7 (NS3-5B) cells
Assay: cell-based HCV replicon assay (luciferase)
Set-up: species or system Hepatitis C virus genotype 1b
Conditions: dose-response curve in HCV replicon system (Figure 3)
Protocol: Huh7 (NS3-5B) cells correspond to a stable cell line transfected with HCV NS3-5B genotype 1b. The cells were seeded (1 × 10^4 cells per well) in Dulbecco’s Modified Eagle Medium (DMEM) supplemented with 10% fetal bovine serum, 2 mM glutamine, penicillin (100 IU/mL)/streptomycin (100 μg/mL), 1× nonessential amino acids and 0.5 mg/mL G418 in 96-well plates overnight. Compounds were diluted and added to each well. Each concentration was measured in duplicate. After 48 h of incubation, 100 μL of Steady-Glo Luciferase buffer (E2550, Promega, Beijing, China) was added to each well and shaken for 10 min, and the results were read on plate reader (ENVISION, PerkinElmer, Shanghai, China). The IC50 values were calculated by fitting with the parameter of the Hill equation.

COc1cccc(/C=N/NC(=O)c2cc3ccccc3nc2C)c1O [Compound 5]
Hill slope: 1.30

C=CCc1cccc(/C=N/c2ccc(OC)cc2)c1O [Compound 11]
Hill slope: 1.02
